Here are results for three substances from article PMC3605390, “Characterisation of ATP-Dependent Mur Ligases Involved in the Biogenesis of Cell Wall Peptidoglycan in Mycobacterium tuberculosis” (PLoS ONE, 2013).

Usually Km stands for the concentration of substrate that gives half-maximal velocity. As usually defined, the kcat/Km is the second-order rate constant that governs catalysis at low substrate concentration.

Among the test systems are NCC(=O)O; N[C@@H](CO)C(=O)O; C[C@H](N)C(=O)O; N[C@H](CCC(=O)O)C(=O)O.
Common to all, as to test: purified protein
Common to all, as to conditions: pH 8.5; 37.0 °C

In data set [1] the test system is Nc1ncnc2c1ncn2[C@@H]1O[C@H](COP(=O)(O)OP(=O)(O)OP(=O)(O)O)[C@@H](O)[C@H]1O.
Data set [2] relates to CC(=O)N[C@H]1[C@@H](OP(=O)(O)OP(=O)(O)OC[C@H]2O[C@@H](n3ccc(=O)[nH]c3=O)[C@H](O)[C@@H]2O)O[C@H](CO)[C@@H](O)[C@@H]1O[C@H](C)C(=O)O.
Data set [3] relates to CC(=O)N[C@H]1[C@@H](OP(=O)(O)OP(=O)(O)OC[C@H]2O[C@@H](n3ccc(=O)[nH]c3=O)[C@H](O)[C@@H]2O)O[C@H](CO)[C@@H](O)[C@@H]1O[C@H](C)C(=O)N[C@@H](C)C(=O)O.

Take MurC (Mycobacterium tuberculosis H37Rv): the Km in the data set on NCC(=O)O was determined as 146.5 ± 1.6 µM; in data set [1], 67.7 ± 1.1 µM; in the data set with N[C@@H](CO)C(=O)O, 99.7 ± 0.5 µM; in the data set on C[C@H](N)C(=O)O, 43.0 ± 0.9 µM; in data set [2], 23.5 ± 0.5 µM. Also, the kcat/Km in the data set on NCC(=O)O was 10500 M⁻¹ s⁻¹; in data set [1] it was 15100 M⁻¹ s⁻¹; with N[C@@H](CO)C(=O)O it was 12500 M⁻¹ s⁻¹; with C[C@H](N)C(=O)O, 23900 M⁻¹ s⁻¹; in data set [2], 44800 M⁻¹ s⁻¹.
Consider MurD (Mycobacterium tuberculosis H37Rv), for which the Michaelis-Menten constant (Km) in data set [3] is 53.3 ± 0.1 µM; in data set [1] it was 106.4 ± 0.1 µM; in the data set with N[C@H](CCC(=O)O)C(=O)O, 85.1 ± 0.2 µM. Further, the results for the kcat/Km (in data set [3]; in data set [1]; in the data set on N[C@H](CCC(=O)O)C(=O)O) were 15100 M⁻¹ s⁻¹, 7500 M⁻¹ s⁻¹ and 9400 M⁻¹ s⁻¹, respectively.
In the case of MurF (Mycobacterium tuberculosis H37Rv), in data set [1], the Km was 92.3 ± 0.2 µM and the kcat/Km was determined as 15300 M⁻¹ s⁻¹.
